Where a protein sequence is shown, tags need not be part of it. For some of these results: The exact form of at least one protein or probe is not confirmed.
Key:
[1] = biological target: T1, TR2 orphan receptor (TR2-11, NR2C1) (Homo sapiens) (UniProt P13056); assay: activity in cells; settings: CHO cells, protein in cells, only the site is given
T1 sequence: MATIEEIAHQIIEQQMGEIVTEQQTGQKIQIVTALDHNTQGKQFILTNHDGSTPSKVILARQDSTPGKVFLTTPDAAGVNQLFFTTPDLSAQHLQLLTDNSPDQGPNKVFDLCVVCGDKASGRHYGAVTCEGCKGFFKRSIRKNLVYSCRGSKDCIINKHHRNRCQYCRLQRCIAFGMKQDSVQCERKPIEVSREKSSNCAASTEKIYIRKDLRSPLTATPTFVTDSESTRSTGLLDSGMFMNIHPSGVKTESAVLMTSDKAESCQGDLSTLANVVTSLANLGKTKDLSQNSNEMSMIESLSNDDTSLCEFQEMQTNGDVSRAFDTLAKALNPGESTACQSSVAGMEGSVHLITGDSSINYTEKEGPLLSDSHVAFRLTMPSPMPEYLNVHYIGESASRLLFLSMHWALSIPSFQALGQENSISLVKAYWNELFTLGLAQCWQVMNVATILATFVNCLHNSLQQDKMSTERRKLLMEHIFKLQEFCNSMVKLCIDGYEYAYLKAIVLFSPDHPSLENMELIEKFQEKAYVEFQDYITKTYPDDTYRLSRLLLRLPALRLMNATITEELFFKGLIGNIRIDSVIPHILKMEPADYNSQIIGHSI

[2] = biological target: T2, TR4 orphan receptor (NR2C2) (Homo sapiens) (UniProt P49116); assay: activity in cells; settings: CHO cells, protein in cells, only the site is given
T2 sequence: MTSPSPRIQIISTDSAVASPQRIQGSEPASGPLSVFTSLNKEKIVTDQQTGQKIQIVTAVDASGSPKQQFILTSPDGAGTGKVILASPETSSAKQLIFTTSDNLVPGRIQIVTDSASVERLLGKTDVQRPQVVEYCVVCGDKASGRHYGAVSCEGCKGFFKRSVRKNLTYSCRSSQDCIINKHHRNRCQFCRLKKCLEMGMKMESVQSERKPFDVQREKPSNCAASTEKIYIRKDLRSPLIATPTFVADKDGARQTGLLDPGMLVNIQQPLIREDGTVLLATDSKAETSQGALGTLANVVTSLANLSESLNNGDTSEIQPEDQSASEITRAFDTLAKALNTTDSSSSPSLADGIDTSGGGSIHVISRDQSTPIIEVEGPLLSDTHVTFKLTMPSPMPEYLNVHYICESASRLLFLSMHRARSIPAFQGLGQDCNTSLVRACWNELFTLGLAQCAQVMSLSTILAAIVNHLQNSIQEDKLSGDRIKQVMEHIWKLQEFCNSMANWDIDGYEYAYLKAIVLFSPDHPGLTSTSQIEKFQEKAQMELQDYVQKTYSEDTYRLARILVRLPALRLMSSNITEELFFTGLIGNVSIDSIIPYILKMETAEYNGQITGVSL

[3] = -32TK-CAT reporter induced, both orientations
[4] = [none], dose-dependent CAT induction, letters built from the parent sequence and the stated change

Sequence	activity on this sequence [1, 3]	activity on this sequence [2, 3]	activity on this sequence [1, 4]	activity on this sequence [2, 4]
ATGTCACCCTAGTTCA (double strand) [HPV-16 DR4RE]	active	active		
ATGTCACCCTAGTTCA (double strand) [HPV-16 LCR]			active	active

Reference: US20060063727, “Tr4/tr2 response elements” (published 2006)
